A mixed list of measured activities; the numbers were collected in NIAID ChemDB.

Shared fields: cytotoxicity tests; measure: CC50

An empty or dashed field is not shown. Lines come from different laboratories, so protocols vary. CCn: concentration that lowers growth or viability of the cells by n%. a–b is a range or a potency band.

smiles,method,cell line,value
Nc1nc(OC[C@H]2CC[C@@H](COCc3ccccc3)O2)cc(OC[C@@H]2CC[C@H](COCc3ccccc3)O2)n1,,PC-3,20 µM
CN1CCn2c(nc(C(=O)NCc3ccc(F)cc3)c(O)c2=O)C(N(C)C(=O)C(=O)N2CCOCC2)C1,microscopy,MT-4,>1 µM
FC(F)(F)c1cc(N2CCOCC2)ccc1Nc1ncnc2ccc(I)cc12,,HUH 9B,>25 µM
Cn1cc(C(=O)NCc2ccc(Cl)cc2)c(=O)c2cc(CN3CCOCC3)ccc21,MTS,HSB-2,>23.5 µM
Nc1c(-c2nc3ccccc3[nH]2)cc(-c2ccccc2)n1-c1cccc(Br)c1,sulforhodamine,MCF-7 breast cancer cells,2.12 µg/mL
CC(C)[C@H](NC(=O)CCS(=O)(=O)c1ccncc1)C(=O)N[C@@H](Cc1ccccc1)[C@@H](O)[C@H](O)[C@H](Cc1ccccc1)NC(=O)[C@@H](NC(=O)CCS(=O)(=O)c1ccncc1)C(C)C,,PBLC,>1.2 µM
COc1cc(OC[C@H]2CC[C@@H](COCc3ccccc3)O2)nc(N)n1,,CAKI-1,107 µM
Cc1cc(CCCCCCCOc2nc3ccccc3[nH]2)on1,crystal violet,WIS HELA,50 µg/mL
C(#Cc1cnc2ccccc2c1)CCC#Cc1cnc2ccccc2c1,MTT,CEM-4fx,168 µM
CC(=O)N1CCn2c(nc(C(=O)NCc3ccc(F)cc3)c(O)c2=O)C(N(C)Cc2ccccc2)C1,microscopy,MT-4,>1 µM
Nc1nc(OC[C@H]2CC[C@@H](COCc3ccccc3)O2)c2[nH]cnc2n1,,CAKI-1,184 µM
COCc1ccc(C(=O)NC2CC3(C2)CC(c2nc4cc(Cl)ccc4o2)C3)o1,absorbance,Primary human hepatocytes,94.2 µM
Nc1c(-c2nc3ccccc3[nH]2)cc(-c2ccccc2)n1-c1nc2ccccc2[nH]1,sulforhodamine,MCF-7 breast cancer cells,1.62 µg/mL
CC(=O)N(C)C1COCCn2c1nc(C(=O)NCc1ccc(F)cc1)c(O)c2=O,microscopy,MT-4,>1 µM
NC(=O)c1cc(C(=O)NC2CC3(C2)CC(c2nc4cc(Cl)ccc4s2)C3)ccn1,absorbance,Primary human hepatocytes,>50 µM
CC(C)N(Cc1cccc(OCCCCCC(=O)OC(=O)O)c1)C(=O)c1ccc(-c2cccc(Cl)c2)cc1,,HEK 293,>20 µM
c1ccc(COC[C@@H]2CC[C@H](COc3ncnc4nc[nH]c34)O2)cc1,,CAKI-1,139 µM
CCOC(=O)c1ccc(OCCCOc2ccc(-c3snc(SC)c3C#N)cc2)cc1,,HELA-OHIO,2 µM
COc1ccc2nc3n[nH]c(C)c3c(Cl)c2c1,,FS-85,>100 µg/mL
CCOC(=O)CCCCCOc1cccc(CN(C(=O)c2ccc(-c3cccc4ccccc34)cc2)C(C)C)c1,,BJ,>20 µM
CC1(Cc2ccccc2)OS(=O)(=O)C=C1OCc1ccccc1,,HEL fibroblasts,68 µM
O=Cc1ccc(C2(Nc3ccc(N4CCOCC4)cc3)N=CNc3ccccc32)o1,,HUH 9B,10–25 µM
CC1(C)CCC2=C(O1)C(=O)c1ccccc1C2=O,,2C4 fibroblasts,0.01 µg/mL
CC(C)CC1(Cc2ccccc2)OS(=O)(=O)C=C1OCc1ccccc1,,HEL fibroblasts,102 µM
CCCc1ccc(S(=O)(=O)NCCc2ccc3c(n2)NCCC3)cc1,,PBMC,50 µM
O=C(NCc1ccc(Cl)cc1)c1cn2c3c(cc(CN4CCOCC4)cc3c1=O)OC(c1cccnc1)C2,MTS,CBL,>18.8 µM
CC(C)[C@H](NC(=O)[C@H](Cc1cccc2ccccc12)CS(=O)(=O)C(C)(C)C)C(=O)NCCCCNC(=O)[C@@H](NC(=O)[C@H](Cc1cccc2ccccc12)CS(=O)(=O)C(C)(C)C)C(C)C,,PBLC,>3 µM
CCC1(Cc2ccccc2)OS(=O)(=O)C=C1OCCCCCCc1ccccc1,,HEL fibroblasts,<200 µM
Nc1cc(OC[C@H]2CC[C@@H](COCc3ccccc3)O2)nc(N)n1,,CAKI-1,144 µM
CCNC(=O)N1CCn2c(nc(C(=O)NCc3ccc(F)cc3)c(O)c2=O)C1(C)C,microscopy,MT-4,>1 µM
Nc1nc(N)nc(OC[C@H]2CC[C@@H](COCc3ccccc3)O2)n1,,PC-3,>250 µM
O=c1nc2c(nc3ccccc13)N(Cc1nc3ccccc3[nH]1)c1ccccc1N2,sulforhodamine,MCF-7 breast cancer cells,1.66 µg/mL
N=C(N)c1ccc(-c2cc(-c3ccc(C(=N)N)nc3)no2)cc1,resazurin,L6 rat myoblasts,1.76 µM
Nc1c(-c2nc3ccccc3[nH]2)cc(-c2ccccc2)n1-c1ccncc1,sulforhodamine,MCF-7 breast cancer cells,0.705 µg/mL
O=C(CNC(=O)c1ccc(-c2cscn2)cc1)NCc1ccccc1,,HS68,<2.5 µM
CC(=O)C[C@H]1C[C@H]2[C@H]([C@@H]3c4[nH]c5ccccc5c4CCN13)[C@H](O)C13CC/C=C\CCCCN1CC21CC/C=C\CCCNC13,,H-116,5 µg/mL
C[Si](C)(C)C#Cc1ccc2ccccc2n1,MTT,CEM-4fx,1.8 µM
O=C(O)c1ccc(-c2ccc3ncnc(Nc4ccc(N5CCOCC5)cc4)c3c2)s1,,HUH 9B,>25 µM
COC(=O)c1cc(-c2cccs2)nc2ccccc12,,HEK 293,>20 µM
CCCCCCCCCCCCCCCCCCOC[C@H](COP(=O)(O)CO[C@H](CO)Cn1ccc(N)nc1=O)OCc1ccccc1,,BCBL-1,>1 µM
Cc1cc(CCCCCCCON2C(=O)COc3c2ccc2ccccc32)on1,crystal violet,WIS HELA,>50 µg/mL
CC(=O)OCC(C)(O)C(C)C(C)C(OC(C)=O)C1OC12C(O)CC1C3CCC4CC(=O)CCC4C3CCC12COC(C)=O,MTT,HEL,>50 µg/mL
Cc1onc(-c2ccccc2)c1NC(=O)NCCc1ccc2c(n1)NCCC2,,PBMC,50 µM
N#Cc1ccc(-c2nc(Nc3ccc(N4CCOCC4)cc3)c3ccccc3n2)cc1,,HUH 9B,>25 µM
CC(=O)OC(C(C)C(C)C(C)(C)O)C1OC12C(O)CC1C3CCC4CC(=O)CCC4C3CCC12CO,MTT,HT-29,>50 µg/mL
CN(C)c1ccc(CNC(=O)Nc2ccc(-c3csc(N)n3)cc2)cc1,,HS68,<18 µM
CCCCCCCCCCCCCCCCCCOCCCOP1(=O)CO[C@@H](Cn2ccc(N)nc2=O)CO1,,BCBL-1,>1 µM
CN(C)C(=O)C(=O)N(C)CC1c2nc(C(=O)NCc3ccc(F)cc3)c(O)c(=O)n2CCN1C,microscopy,MT-4,>10 µM
CCCc1ccc2ccccc2n1,MTT,CEM-4fx,84 µM
c1ccc(-n2nccc2CCCCCCOc2ccc3c(c2)oc2ccccc23)cc1,crystal violet,WIS HELA,>50 µg/mL
Cc1cc(C=O)cc(C)c1Oc1cc(Nc2ccc(C#N)cc2)nc2ccccc12,MTT,HCC-S102,74 µM
Nc1ccn(C[C@@H](CO)OCP(=O)(O)O)c(=O)n1,,HEL fibroblasts,74 µM
Nc1cc(OC[C@H]2CC[C@@H](COCc3ccccc3)O2)ncn1,,L1210,182 µM
CCC1(CC)OS(=O)(=O)C=C1OCc1ccccc1,,HEL fibroblasts,>200 µM
CC(C)[C@H](NC(=O)[C@H](Cc1ccccc1)CS(=O)(=O)C(C)(C)C)C(=O)N[C@@H](Cc1ccccc1)[C@@H](O)[C@H](O)[C@H](Cc1ccccc1)NC(=O)[C@@H](NC(=O)[C@H](Cc1ccccc1)CS(=O)(=O)C(C)(C)C)C(C)C,,PBLC,>0.023 µM
c1ccc(-n2nccc2CCCCCCOc2ccc3ccccc3c2)cc1,crystal violet,WIS HELA,50 µg/mL
C=C(C)[C@@H]1CCC2(C(=O)NCCC(=O)OCC)CC[C@]3(C)C(CCC4[C@@](C)(CC#N)C(C(C)(C)C(=O)NCCC(=O)OCC)CC[C@]43C)C12,MTT,MS,>100 µM
CC(C)[C@H](NC(=O)COc1cccc2ccccc12)C(=O)N[C@@H](Cc1ccccc1)[C@@H](O)[C@H](O)[C@H](Cc1ccccc1)NC(=O)[C@@H](NC(=O)COc1cccc2ccccc12)C(C)C,,PBLC,>0.041 µM
CC1(C)CCC2C(=O)C(=O)c3ccccc3C2O1,,2C4 fibroblasts,20 µg/mL
Cc1cc(=O)oc2cc(OCc3cn(Cc4cc(=O)oc5ccc(Cl)cc45)nn3)ccc12,MTT,V79,44.24 µg/mL
Nc1nc(-c2ccc(NC(=O)C(=O)N(Cc3ccccc3)Cc3ccccc3)cc2)cs1,,HS68,<12 µM
CSc1nsc(-c2ccc(OCCCOc3ccccc3)cc2)c1C#N,,HELA-OHIO,>50 µM
CCc1cc2c(o1)C(=O)c1ccccc1C2=O,,2C4 fibroblasts,10 µg/mL
C=CCCN(Cc1cc(OC)cc(OC)c1)C(=O)CC(C)=O,,BJ,<7.5 µM
O=C1C(=O)c2ccccc2C(O)=C1/C=C/c1ccccc1,,2C4 fibroblasts,>50 µg/mL
CCOC(=O)c1ccc(OCCCCOc2ccc(-c3snc(SC)c3C#N)cc2)cc1,,HELA-OHIO,2 µM
NS(=O)(=O)c1ccc(C(=O)NC2CC3(C2)CC(c2nc4cc(Cl)ccc4o2)C3)o1,absorbance,Primary human hepatocytes,>100 µM
OC/C=C/c1ccc2ccccc2n1,MTT,CEM-4fx,1.7 µM
Nc1nc(Cl)cc(OC[C@H]2CC[C@@H](COCc3ccccc3)O2)n1,,CAKI-1,120 µM
FC(F)(F)c1cc(N2CCOCC2)ccc1Nc1ncnc2ccc(-c3cccs3)cc12,,HUH 9B,10–25 µM
O=C(NCCc1ccc2c(n1)NCC(=O)O2)NCc1ccc(Cl)c(Cl)c1,,PBMC,13.8 µM
CSc1nsc(-c2ccc(OCCCOc3ccc([N+](=O)[O-])cc3)cc2)c1C#N,,HELA-OHIO,1 µM
Cc1cc(CCCCCCCOc2ccc3ccccc3c2)on1,crystal violet,WIS HELA,50 µg/mL
CCCc1cc2c(o1)C(=O)c1ccccc1C2=O,,2C4 fibroblasts,5 µg/mL
O=C(Nc1ccc(Cl)c(Cl)c1)Nc1ccc2c(c1)CCC2,,PBMC,50 µM
Cc1cc(=O)oc2cc(OCc3cn(Cc4cc(=O)oc5cc(Cl)ccc45)nn3)ccc12,MTT,HBL100,54.39 µg/mL
c1ccc(COc2ccc(-c3ccc4ncnc(Nc5ccc(N6CCOCC6)cc5)c4c3)cc2)cc1,,HUH 9B,>25 µM
O=c1nc2c(nc3ccccc13)Nc1ccccc1N2,sulforhodamine,MCF-7 breast cancer cells,1.39 µg/mL
Cc1nccn1-c1cccc(CCNC(=O)NCc2ccc(Cl)c(Cl)c2)n1,,PBMC,8.6 µM
CCCCCCCC/C=C\CCCCCCCCOCCOP(=O)(O)CO[C@H](CO)Cn1ccc(N)nc1=O,,BCBL-1,1.7 µM
CC1(C)c2nc(C(=O)NCc3ccc(F)cc3)c(O)c(=O)n2CCN1Cc1nnco1,microscopy,MT-4,>1 µM
CCCC1(Cc2ccccc2)OS(=O)(=O)C=C1OCc1ccccc1,,HEL fibroblasts,>200 µM
Nc1nc(-c2ccc(NC(=O)CNCCCc3ccccc3)cc2)cs1,,HS68,>14 µM
CCC1(Cc2ccccc2)OS(=O)(=O)C=C1OCc1ccc(C)cc1,,HEL fibroblasts,41.5 µM
OC(c1ccc2ccccc2n1)C1CC1,MTT,CEM-4fx,20.4 µM